From patent US20120135013A1, “CD45 and Methods and Compounds Related Thereto” (priority 2007, published 2012)

System: J774A.1 cells
Type: cell-based, mouse

Compound	viability of J774A.1 cells following infection with Sterne B. anthracis spores	viability against B. anthracis infection
O=C1C(SCCO)=C(SCCO)C(=O)c2ccccc21 [NSC 95397]	increased the viability	–
NC(=O)CCCSC1=CC(=O)c2ccccc2C1=O [NSC 270012]	increased the viability	–
CD45 PMO (CCACAAACCCATGGTCATATC; all phosphorodiamidate morpholino (PMO))	–	increased viability
